A mixed list of measured activities; the numbers were collected in NIAID ChemDB.

Common to all: whole-cell or culture tests; species: Mycobacterium fortuitum; measure: MIC

Neighbouring rows are from separate reports. An empty or dashed field is not shown.

smiles | strain or isolate | read by | result
C[C@@H]1CN(c2c(F)c(N)c3c(=O)c(C(=O)O)cn(C4CC4)c3c2F)C[C@H](C)N1 | 2 isolates | - | 0.3 µg/mL
COc1ccc(/C=N/NC(=O)c2cnc3cccc(C(F)(F)F)c3c2NC(CSc2ccccc2)CC(=O)N(C)C)cc1O | ATCC 19542 | resazurin | 10 µg/mL
CO[C@@]1(NC(=O)Cc2ccccc2)C(=O)N2C(C(=O)O)=C(COC(C)=O)CSC21 | 1263 | - | 50 µg/mL
O=C(O)c1ccc(NC(=O)C(F)(F)F)cc1O | ATCC 6841 | broth dilution | >128 µg/mL
Cc1cccc(C)c1Nc1nc(C#N)cnc1C(N)=O | 1021 | - | >100 µg/mL
C[C@@H](O)[C@H]1C(=O)N2C(C(=O)O)=C(SCCN=CN)C[C@H]12 | 1045 | - | 25 µg/mL
CCn1cc(C(=O)O)c(=O)c2cc(Cl)c(-c3nc(-c4ccccc4)cs3)cc21 | - | - | 6.25 µg/mL
NC(=O)c1ncc(C(N)=S)nc1N1CCOCC1 | 1021 | - | >100 µg/mL
COc1cc2c(ccc3cc(OC)c(O)c(OC)c32)cc1O | - | - | 100 µg/mL
CCn1cc(C(=O)O)c(=O)c2cc(F)c(C3SCC(C)N3C)cc21 | - | - | 50 µg/mL
CCn1cc(C(=O)O)c(=O)c2cc(F)c(-c3cscn3)cc21 | - | - | 25 µg/mL
CCCCCSc1ccnc(C(N)=S)c1 | 1021 | - | 250 µM
NC(=O)c1ncc(C(N)=S)nc1N1CCCC1 | 1021 | - | >100 µg/mL
CN[C@@H]1[C@H](O[C@H]2[C@H](O[C@H]3[C@H](O)[C@@H](O)[C@H](N=C(N)N)[C@@H](O)[C@@H]3N=C(N)N)O[C@@H](C)[C@]2(O)C=O)O[C@@H](CO)[C@H](O)[C@H]1O | - | - | 1.56 µg/mL
C[C@H]1[C@H](C)CC[C@]2(C(=O)O)CC[C@]3(C)C(CC[C@@H]4[C@@]5(C)C[C@H](O)CC(C)(C)[C@@H]5CC[C@]43C)[C@H]12 | - | resazurin | 100 µg/mL
CC1CN(c2cc3c(cc2F)c(=O)c(C(=O)O)cn3-c2ccc(F)cc2F)CCN1 | ATCC 6841 | - | 8 µg/mL
CSc1ccccc1/C=N/NC(=O)c1cnc2cc(F)ccc2c1NC(CSc1ccccc1)CC(=O)N(C)C | ATCC 19542 | resazurin | >100 µg/mL
CCOC1Oc2ccc(Cl)cc2C(=O)/C1=C\Nc1cccc(C(=O)O)c1O | 1021 | - | >100 µg/mL
CSc1ccccc1/C=N/NC(=O)c1cnc2cccc(C(F)(F)F)c2c1NC(CSc1ccccc1)CC(=O)N(C)C | ATCC 19542 | resazurin | >100 µg/mL
CCn1cc(C(=O)O)c(=O)c2cc(Cl)c(C3SCC(C)N3C)cc21 | - | - | 25 µg/mL
O=C(Nc1ccc(C(=O)O)c(O)c1)NC1CCCCC1 | ATCC 6841 | broth dilution | 64 µg/mL
CCCCCCCC/C=N/NC(=O)c1cnc2cc(F)ccc2c1NC(CSc1ccccc1)CC(=O)N(C)C | ATCC 19542 | resazurin | 5 µg/mL
CCn1cc(C(=O)O)c(=O)c2cc(F)c(C3SC(C)C(C)N3C)cc21 | - | - | 50 µg/mL
S=C=NCCCCCCN=C=S | - | visual reading | 16 µg/mL
COc1ccc(/C=N/NC(=O)c2cnc3cccc(C(F)(F)F)c3c2NC(CSc2ccccc2)CC(=O)N(C)C)c(F)c1 | ATCC 19542 | resazurin | >100 µg/mL
CCCCCCCCCCCCCCCCSc1ccnc(C(N)=S)c1 | 1021 | - | 2000 µM
COc1cccc(Nc2nc(C#N)cnc2C(N)=O)c1 | 1021 | - | >100 µg/mL
CN(C)C(=O)CC(CSc1ccccc1)Nc1c(C(=O)N/N=C/c2cc(F)ccc2O)cnc2cc(F)ccc12 | ATCC 19542 | resazurin | >100 µg/mL
CCn1cc(C(=O)O)c(=O)c2ccc(C3CSCN3C)cc21 | - | - | >100 µg/mL
CCOC1Oc2ccc([N+](=O)[O-])cc2C(=O)/C1=C\Nc1ccc(C(=O)O)c(O)c1 | 1021 | - | >100 µg/mL
N#Cc1cnc(C(N)=O)c(Nc2cc(C(F)(F)F)cc(C(F)(F)F)c2)n1 | 1021 | - | >100 µg/mL
CC[C@H]1OC(=O)[C@H](C)[C@@H](O[C@H]2C[C@@](C)(OC)[C@@H](O)[C@H](C)O2)[C@H](C)[C@@H](O[C@@H]2O[C@H](C)C[C@H](N(C)C)[C@H]2O)[C@](C)(OC)C[C@@H](C)C(=O)[C@H](C)[C@@H](O)[C@]1(C)O | ATCC 6841 | - | >8 µg/mL
N#Cc1cnc(C(N)=O)c(Nc2cccc(Br)c2)n1 | 1021 | - | >100 µg/mL
CCn1cc(C(=O)O)c(=O)c2ccc(-c3nc(C)cs3)cc21 | - | - | 25 µg/mL
NC(=O)c1ncc(C(N)=S)nc1Nc1ccc(O)cc1 | 1021 | - | 100 µg/mL
CCC1Cn2cc([N+](=O)[O-])nc2O1 | 1 isolates | - | >250 µg/mL
NC(=O)c1ncc(C(N)=S)nc1N1CCCCC1 | 1021 | - | >100 µg/mL
CCn1cc(C(=O)O)c(=O)c2ccc(-c3nc(-c4ccccc4)cs3)cc21 | - | - | 1.6 µg/mL
CO[C@@]1(NC(=O)Cc2ccccc2)C(=O)N2C(C(=O)[O-])=C(CSc3nnc(C)s3)CSC21 | 1004-8 | - | 100 µg/mL
CCCCCCCCSc1ccnc(C(N)=S)c1 | 1021 | - | 125 µM
C[C@@H]1CN(c2c(F)c(N)c3c(=O)c(C(=O)O)cn(C4CC4)c3c2F)C[C@H](C)N1 | ATCC 6841 | - | 0.5 µg/mL
COc1cc(OC)c2c(ccc3c(O)c(O)c(O)cc32)c1 | - | - | 25 µg/mL
Cc1ccc(Nc2nc(C#N)cnc2C(N)=O)cc1[N+](=O)[O-] | 1021 | - | >100 µg/mL
CCn1cc(C(=O)O)c(=O)c2cc(F)c(-c3csc(C)n3)cc21 | - | - | 25 µg/mL
CCCCCCOC1Oc2ccc(Cl)cc2C(=O)/C1=C\Nc1ccc(C(=O)O)c(O)c1 | 1021 | - | >100 µg/mL
NC(=O)c1ncc(C(N)=S)nc1Nc1cccc(O)c1 | 1021 | - | 50 µg/mL
CCCCCCSc1ccnc(C(N)=S)c1 | 1021 | - | 125 µM
O=C(O)c1ccc(N2C(=O)C(C(=O)C(F)(F)F)C(=O)N(c3ccc(S(=O)(=O)Nc4ncccn4)cc3)C2=S)cc1O | ATCC 6841 | broth dilution | >128 µg/mL
Cc1c(CN2CCN(C)CC2)cc(-c2ccc(Cl)cc2)n1-c1ccc(Cl)cc1 | CA10 | - | 3.1 µg/mL
CCn1cc(C(=O)O)c(=O)c2ccc(-c3csc(-c4ccncc4)n3)cc21 | - | - | 1.6 µg/mL
CCOC1Oc2ccccc2C(=O)/C1=C\Nc1ccc(C(=O)O)c(O)c1 | 1021 | - | >100 µg/mL
CO[C@@]1(NC(=O)Cc2cccs2)C(=O)N2C(C(=O)O)=C(COC(N)=O)CS[C@@H]21 | 1030-8 | - | 12.5 µg/mL
COc1ccc(/C=N/NC(=O)c2cnc3cc(F)ccc3c2NC(CSc2ccccc2)CC(=O)N(C)C)cc1O | ATCC 19542 | resazurin | 5 µg/mL
NC1CCN(c2c(F)cc3c(=O)c(C(=O)O)cn(C4CC4)c3c2Cl)C1 | ATCC 6841 | - | 0.5 µg/mL
COc1cc2c(cc1O)CCc1cc(O)cc(OC)c1-2 | - | - | 25 µg/mL
CCn1cc(C(=O)O)c(=O)c2cc(Cl)c(-c3nc(C)c(C)s3)cc21 | - | - | 6.25 µg/mL

A second listing of 6 rows from above:

| smiles | strain or isolate | read by | result |
|---|---|---|---|
| CN[C@@H]1[C@H](O[C@H]2[C@H](O[C@H]3[C@H](O)[C@@H](O)[C@H](N=C(N)N)[C@@H](O)[C@@H]3N=C(N)N)O[C@@H](C)[C@]2(O)C=O)O[C@@H](CO)[C@H](O)[C@H]1O | - | - | 1.56 µg/mL |
| COc1cc2c(cc1O)CCc1cc(O)cc(OC)c1-2 | - | - | 25 µg/mL |
| CCCCCCOC1Oc2ccc(Cl)cc2C(=O)/C1=C\Nc1ccc(C(=O)O)c(O)c1 | 1021 | - | >100 µg/mL |
| S=C=NCCCCCCN=C=S | - | visual reading | 16 µg/mL |
| COc1ccc(/C=N/NC(=O)c2cnc3cccc(C(F)(F)F)c3c2NC(CSc2ccccc2)CC(=O)N(C)C)cc1O | ATCC 19542 | resazurin | 10 µg/mL |
| C[C@@H](O)[C@H]1C(=O)N2C(C(=O)O)=C(SCCN=CN)C[C@H]12 | 1045 | - | 25 µg/mL |